Anti-infective test results gathered from many reports (values: NIAID ChemDB through PubChem).

All rows: growth or infection tests; agent: Measles virus; cell line: VERO; measure: EC50

ECn is the concentration giving n% inhibition of infection, replication or growth. Lines come from different laboratories, so protocols vary. Two numbers with a dash give a range or band. An empty or dashed field is not shown.

compound | strain | read by | result
N#Cc1cc(NC(=O)c2ccccc2)c(=O)n2c1[nH]c1ccccc12 | Sugiyama | plaque count | 0.7 µg/mL
Nc1ncnc2c1ncn2[C@H]1C[C@@H](CO)[C@H](O)[C@@H]1O | - | cytopathic effect | ≥200 µg/mL
Nc1ncnc2c1ncn2C[C@H](O)CO | - | cytopathic effect | 40 µg/mL
NC(=O)CCN(CCC(N)=O)S(=O)(=O)c1cccc(Nc2nc(Nc3cccc(S(=O)(=O)N(CCC(N)=O)CCC(N)=O)c3)nc(Nc3ccc(-c4ccc(Nc5nc(Nc6cccc(S(=O)(=O)N(CCC(N)=O)CCC(N)=O)c6)nc(Nc6cccc(S(=O)(=O)N(CCC(N)=O)CCC(N)=O)c6)n5)cc4S(=O)(=O)O)c(S(=O)(=O)O)c3)n2)c1 | - | cytopathic effect | 175 µg/mL
Nc1ncnc2c1ncn2[C@@H]1C=C(CO)[C@@H](O)[C@@H]1O | - | cytopathic effect | 300 µg/mL
CCCCCCCCCCCCCCCCO[C@H]1N([C@H]2C[C@H](N=[N+]=[N-])[C@@H](CO)O2)C(=O)NC(=O)[C@]1(C)Br | Sugiyama | cytopathic effect | >500 µg/mL
Nc1ncnc2c1ncn2C[C@H](O)CO | - | cytopathic effect | 4–40 µg/mL
COS(=O)(=O)O.N=C(N)c1ccc2cc(OC(=O)c3ccc(N=C(N)N)cc3)ccc2c1 | Sugiyama | cytopathic effect | >110 µg/mL
Nc1ccn([C@@H]2C=C(CO)[C@@H](O)[C@H]2O)c(=O)n1 | SSPE Niigata-1 | cytopathic effect | 0.05 µg/mL
Nc1nccc2c1ncn2[C@@H]1C[C@H](CO)[C@@H](O)[C@H]1O | - | cytopathic effect | 0.7 µg/mL
COc1ccc(OC)c(/C=N/N=C(/N)NO)c1.Cc1ccc(S(=O)(=O)O)cc1 | - | plaque count | >50 µM
Nc1ncnc2c1ncn2[C@@H]1C=C(CO)[C@@H](O)[C@H]1O | - | plaque count | 0.2 µg/mL
Nc1ncnc2c1ncn2[C@@H]1C=C(CO)[C@@H](O)C1 | - | cytopathic effect | 150 µg/mL
COc1cc(OC)c(OC)cc1/C=N/N=C(/N)NO.Cc1ccc(S(=O)(=O)O)cc1 | - | plaque count | >50 µM
C1=CCC2(CC1)COC(c1ccco1)OC2 | Sugiyama | cytopathic effect | >500 µg/mL

For reference, 2 entries again:

compound | strain | read by | result
NC(=O)CCN(CCC(N)=O)S(=O)(=O)c1cccc(Nc2nc(Nc3cccc(S(=O)(=O)N(CCC(N)=O)CCC(N)=O)c3)nc(Nc3ccc(-c4ccc(Nc5nc(Nc6cccc(S(=O)(=O)N(CCC(N)=O)CCC(N)=O)c6)nc(Nc6cccc(S(=O)(=O)N(CCC(N)=O)CCC(N)=O)c6)n5)cc4S(=O)(=O)O)c(S(=O)(=O)O)c3)n2)c1 | - | cytopathic effect | 175 µg/mL
COS(=O)(=O)O.N=C(N)c1ccc2cc(OC(=O)c3ccc(N=C(N)N)cc3)ccc2c1 | Sugiyama | cytopathic effect | >110 µg/mL